# Patent US20120135959A1, “Metalloprotein inhibitors containing nitrogen based ligands” (priority 2006, published 2012)
# Protein sequences, listed by entry. Tags and fused reporters are not part of them. Residues count along the entry.
# UniProt P15917, 34-809 limits assumed: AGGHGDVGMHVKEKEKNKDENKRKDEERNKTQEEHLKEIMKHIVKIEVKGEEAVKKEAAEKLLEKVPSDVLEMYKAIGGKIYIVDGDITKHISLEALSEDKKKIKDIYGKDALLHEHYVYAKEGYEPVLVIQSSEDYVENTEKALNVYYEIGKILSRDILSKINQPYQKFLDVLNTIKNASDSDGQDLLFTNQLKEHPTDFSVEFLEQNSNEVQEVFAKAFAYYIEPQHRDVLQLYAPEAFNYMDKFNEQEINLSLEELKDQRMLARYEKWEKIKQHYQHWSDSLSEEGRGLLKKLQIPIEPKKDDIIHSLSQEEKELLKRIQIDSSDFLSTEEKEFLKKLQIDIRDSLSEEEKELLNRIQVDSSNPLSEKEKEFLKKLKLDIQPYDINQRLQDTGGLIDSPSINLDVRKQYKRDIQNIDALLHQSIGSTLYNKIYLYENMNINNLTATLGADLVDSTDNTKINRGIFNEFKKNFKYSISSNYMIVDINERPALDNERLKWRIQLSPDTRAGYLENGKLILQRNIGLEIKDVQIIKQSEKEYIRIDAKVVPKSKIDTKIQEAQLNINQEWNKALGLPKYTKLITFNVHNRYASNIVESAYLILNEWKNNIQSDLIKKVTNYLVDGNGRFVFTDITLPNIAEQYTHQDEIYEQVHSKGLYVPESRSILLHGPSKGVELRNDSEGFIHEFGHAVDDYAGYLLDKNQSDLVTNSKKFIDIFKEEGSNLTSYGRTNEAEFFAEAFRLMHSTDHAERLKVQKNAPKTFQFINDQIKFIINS
# Target: recombinant anthrax lethal factor (Bacillus anthracis, UniProt P15917)
# Experiment: Recombinant anthrax lethal factor fluorescence assay
# Assay type: biochemical
# Conditions: read-out: LF IC50; fluorescence-based assay, LF 3 nM, 45 min preincubation at 25° C., pH 7.0; at least three independent experiments; spread in brackets
structure (smiles),measurement,value
C1CNCCNCCCNCCNC1,IC50,2920 µM
